Laboratory results as given in paper PMC6553790 (PLoS Pathogens, 2019).

Test system: P. falciparum Cam3.II and V1/S lines
Experiment: 72 hr dose-response assay, asynchronous cultures
Type: cell-based, Plasmodium falciparum
[1] = RPN6 E266K line vs parental Cam3.II K13WT
[2] = RPT4 E380* line vs parental Cam3.II K13WT
[3] = RPT5 G319S line vs parental Cam3.II K13C580Y
[4] = β2 A49E line vs parental V1/S K13C580Y
[5] = β2 C31F line vs parental V1/S K13WT
[6] = β2 C31Y line vs parental Cam3.II K13C580Y
[7] = β5 A20S line vs parental Cam3.II K13C580Y
[8] = β6 A117V line vs parental V1/S K13WT
[9] = β6 S208L line vs parental V1/S K13C580Y

| SMILES | Fold change in IC50 [1] | Fold change in IC90 [1] | Fold change in IC50 [2] | Fold change in IC90 [2] | Fold change in IC50 [3] | Fold change in IC90 [3] | Fold change in IC50 [4] | Fold change in IC90 [4] | Fold change in IC50 [5] | Fold change in IC90 [5] | Fold change in IC50 [6] | Fold change in IC90 [6] | Fold change in IC50 [7] | Fold change in IC90 [7] | Fold change in IC50 [8] | Fold change in IC90 [8] | Fold change in IC50 [9] | Fold change in IC90 [9] |
| --- | --- | --- | --- | --- | --- | --- | --- | --- | --- | --- | --- | --- | --- | --- | --- | --- | --- | --- |
| CC(C)CC(C=CS(C)(=O)=O)NC(=O)C(CC(C)C)NC(=O)C(Cc1c[nH]c2ccccc12)NC(=O)CN1CCOCC1 (stereo not drawn) [WLL, Mu-WLL-vs] | 1.0 fold | 1.0 fold | 0.9 fold | 1.0 fold | 1.0 fold | 1.0 fold | 1.0 fold | 1.1 fold | 0.4 fold | 0.6 fold | 0.4 fold | 0.6 fold | 2.4 fold | 3.0 fold | 2.3 fold | 2.4 fold | 1.2 fold | 1.3 fold |
| CC(C)CC(NC(=O)C(Cc1c[nH]c2ccccc12)NC(=O)CN1CCOCC1)C(=O)NC(C=CS(C)(=O)=O)Cc1c[nH]c2ccccc12 (stereo not drawn) [WLW, Mu-WLW-vs] | 2.4 fold | 1.8 fold | 2.2 fold | 1.7 fold | 1.9 fold | 1.9 fold | 4.3 fold | 1.7 fold | 5.2 fold | 1.7 fold | 3.4 fold | 2.5 fold | 0.3 fold | 0.3 fold | 2.5 fold | 2.0 fold | 1.1 fold | 1.0 fold |
